Compound potency records, mixed from different reports. Data source: NIAID ChemDB in PubChem.

Common to all: tests in culture; organism: HIV-1; measure: inhibition

Conditions beyond the fields shown may differ between rows.

structure | changes | dose | method | setting | strain | cells | value
Nc1cccc(C(=O)N2CCN(C(=O)C(=O)c3c[nH]c4cccc(F)c34)CC2)c1 | - | 10 µM | luciferase | - | - | HeLa + HELA CD4+/CCR5 | >98%
CCOP(=O)(OCC)C(O)Cn1cc(Cn2cnc3c(N)ncnc32)nn1 | - | 100 µM | - | - | IIIB | CEM | 0%
CC(=O)c1ccc(-c2cc3oc(=O)cc(C(C)C)c3c3c2C=CC(C)(C)O3)s1 | - | 50 µM | RT activity / visual reading | - | 899A | MT-4 | 13%
COc1ccc(F)c2c(C(=O)C(=O)N3CCN(C(=O)c4cccc(N)c4)C[C@H]3C)c[nH]c12 | - | 10 µM | luciferase | - | - | HeLa + HELA CD4+/CCR5 | >98%
C[C@H](CCCC(C)(C)O)[C@H]1CC[C@H]2[C@@H]3CC=C4C[C@@H](O)CC[C@]4(C)[C@H]3CC[C@]12C | - | 1 µM | luciferase / single cycle | - | IIIB | CEM | >50%
CC(C)CN(C[C@@H](O)[C@H](Cc1ccccc1)NC(=O)O[C@H]1CO[C@H]2OCC[C@H]21)S(=O)(=O)c1ccc2nc(NC3CCN(C4CCCC4)CC3)sc2c1 | - | 0.00947 µM | reporter gene | - | LAI | MT-4 | 90%
CCOP(=O)(CCn1cc(-n2c[n+](C)c(=O)[nH]c2=O)nn1)OCC | - | 100 µM | - | - | IIIB | CEM | 0%
O=c1[nH]c(=O)c2ncn([C@@H]3O[C@H](CO)[C@H]3CO)c2[nH]1 | - | 100 µg/mL | RT activity / antigen | - | IIIB | MT-4 | 8%
Cc1cc(C)c(S(=O)(=O)OCC2OC3OC4C(CO)OC(OC5C(CO)OC(OC6C(CO)OC(OC7C(CO)OC(OC8C(CO)OC(OC9C(C[n+]%10ccccc%10)OC(OC2C(O)C3O)C(O)C9O)C(O)C8O)C(O)C7O)C(O)C6O)C(O)C5O)C(O)C4O)c(C)c1 | - | 1.95 µg/mL | cytopathic effect / trypan blue | - | LAV-1 | MT-4 | 100%
Cc1cn([C@H]2C[C@H](n3nncc3-c3ccc4[nH]ccc4c3)[C@@H](CO)O2)c(=O)[nH]c1=O | - | 10 µM | cytopathic effect / MTT / absorbance | - | IIIB | CEM-SS | 2%
CC(=O)N1CCC(C(=O)N(CCCN2CCC(Cc3ccc(C(N)=O)cc3)CC2)c2ccc(C)c(Cl)c2)CC1 | - | 0.005 µM | p24 | - | CTV Clinical isolates | PBMC | 90%
CCCCOC(=O)N1C=CC(C#N)C(C(C)=O)=C1 | - | 50 µM | syncytia | - | IIIB | MOLT-3 | 0%
CC1(C)CC[C@]2(C(=O)NCCCC(=O)NCC(=O)O)CC[C@]3(C)C(=CC[C@@H]4[C@@]5(C)C[C@@H](O)[C@H](O)C(C)(C)[C@@H]5CC[C@]43C)[C@@H]2C1 | - | 10 µM | p24 / ELISA | - | pNL4-3 | MT-2 | -12.3%
Cc1ccc(C)c(NS(=O)(=O)c2cc(C(=O)NCc3ccccn3)ccc2Cl)c1 | AZT-resistant | 1 µM | p24 | - | Clinical isolate | C8166 | 90%
CCSC(=O)N1c2ccc3ccccc3c2C=CC1C#N | - | 50 µM | syncytia | - | IIIB | MOLT-3 | 0%
COC(=O)CNC(=O)[C@]12CCC(C)(C)C[C@H]1C1=CC[C@@H]3[C@@]4(C)C[C@@H](O)[C@H](O)C(C)(C)[C@@H]4CC[C@@]3(C)[C@]1(C)CC2 | - | 25 µM | p24 / ELISA | - | pNL4-3 | MT-2 | 43.7%
CC(C)[C@H](NC(=O)[C@H](CO)NC(=O)[C@@H](N)CSSCC(=O)O)C(=O)N[C@H](C(=O)N[C@@H](CSSCC(=O)O)C(=O)NCC(=O)O)[C@@H](C)O | - | 0.132 µM | p24 | - | IIIB | PBMC(PHA STIM.) + PBMC | 58%
CCCCCCCCCCCCC/C=C/[C@@H](O)[C@H](CO)NC(=O)CCCOc1ccc2[nH]c(C(=O)N3CCN(c4ncccc4NC(C)C)CC3)cc2c1 | - | 0.1 µM | p24 | - | IIIB | H9 | 76%
CC(=O)Oc1cccc(C(=O)N2CCN(C(=O)C(=O)c3c[nH]c4cccc(F)c34)CC2)c1 | - | 10 µM | luciferase | - | - | HeLa + HELA CD4+/CCR5 | >98%
C=CCCOC(=O)N1c2ccc3ccccc3c2C=CC1C#N | - | 50 µM | syncytia | - | IIIB | MOLT-3 | 0%
O=c1ccn(-c2cn(CP(=O)(O)O)nn2)c(=O)[nH]1 | - | 100 µM | - | - | IIIB | CEM | 0%
O=C(C(=O)N1CCN(C(=O)c2ccccc2)CC1)c1c[nH]c2cc(F)c(Br)c(F)c12 | - | 10 µM | luciferase | - | - | HeLa + HELA CD4+/CCR5 | 97%
CC(C)[C@H](NC(=O)[C@]12CCC(C)(C)C[C@H]1C1=CC[C@@H]3[C@@]4(C)C[C@@H](O)[C@H](O)C(C)(C)[C@@H]4CC[C@@]3(C)[C@]1(C)CC2)C(=O)O | - | 25 µM | p24 / ELISA | - | pNL4-3 | MT-2 | -21.2%
O=S(=O)(O)c1c2ccccc2c(-c2c3nc(c(-c4c5ccccc5c(S(=O)(=O)O)c5ccccc45)c4ccc([nH]4)c(-c4c5ccccc5c(S(=O)(=O)O)c5ccccc45)c4nc(c(-c5c6ccccc6c(S(=O)(=O)O)c6ccccc56)c5ccc2[nH]5)C=C4)C=C3)c2ccccc12 | - | 50 µg/mL | β-galactosidase | - | IIIB | MAGI | 97%
C=CC[C@H](NC(=O)[C@H](Cc1ccccc1)NS(=O)(=O)N1CCOCC1)C(=O)N[C@@H](CC1CCCCC1)[C@@H](O)C[C@H](C(=O)NCCCC)C(C)C | - | 4.3 µM | cytopathic effect / XTT | - | IIIB | MT-2 | 77%
CC(=O)Oc1ccc(/C=C/S(=O)(=O)CCc2ccc(NC(=O)c3ccc([N+](=O)[O-])cc3)cc2)cc1OC(C)=O | - | 50 µM | fluorescence | - | BaL | TZM-bl | <20%
CC(=O)N[C@@H](Cc1c[nH]c2ccccc12)C(=O)N[C@H](C(=O)N[C@@H](Cc1ccccc1)[C@H](O)[C@@H](O)[C@@H]1CCCN1C(=O)[C@@H](NC(=O)[C@H](Cc1c[nH]c2ccccc12)NC(C)=O)C(C)C)C(C)C | - | 0.005 µM | MTT | - | IIIB | MT-2 | <10%
CC(C)c1cc(=O)oc2c(C3C=NNC(SCc4ccccc4)=N3)c(O)c3c(c12)OC(C)(C)C=C3 | - | 50 µM | RT activity / visual reading | - | 899A | MT-4 | 32%
O=C(C(=O)N1CCN(C(=O)c2cccc(S)c2)CC1)c1c[nH]c2cccc(Cl)c12 | - | 10 µM | luciferase | - | - | HeLa + HELA CD4+/CCR5 | >98%
C=C(C)OC(=O)N1C=CC(C#N)C(C(C)=O)=C1 | - | 50 µM | syncytia | - | IIIB | MOLT-3 | 0%
O=S(=O)(O)c1ccc(-c2c3nc(c(-c4ccc(S(=O)(=O)O)cc4)c4ccc([nH]4)c(-c4ccc(S(=O)(=O)O)cc4)c4nc(c(-c5ccccc5)c5ccc2[nH]5)C=C4)C=C3)cc1 | - | 5 µg/mL | β-galactosidase | - | IIIB | MAGI | 48%
C=CCOC(=O)N1C=CC(C#N)C(C(C)=O)=C1 | - | 50 µM | syncytia | - | IIIB | MOLT-3 | 0%
CCNc1cccnc1N1CCN(C(=O)c2cc3cc(O)ccc3[nH]2)CC1 | - | 0.1 µM | p24 | - | IIIB | H9 | 40%
C=C1C[C@@H](CO)O[C@H]1n1ccc(N)nc1=O | - | 100 µM | - | - | - | H9 | 0%
CC(=O)N(C)c1nc(C(=O)NCc2ccc(F)cc2)c(O)c2ncccc12 | - | 0.612 µM | p24 | 50% human serum | - | MT-4 | >95%
COc1ccc(OCC2OC2COC(=O)c2ccc(O)c(OC)c2)cc1 | - | 5 µM | GFP / fluorescence | - | - | CEM-GFP | 1%
CC(C)[C@H](NC(=O)[C@H](CO)NC(=O)[C@@H](N)CS)C(=O)N[C@H](C(=O)N[C@@H](CS)C(=O)NCC(=O)O)[C@@H](C)O | - | 0.66 µM | p24 | - | BaL | PBMC(PHA STIM.) + PBMC | 0%
CCCCCCCCCCCCC/C=C/[C@@H](O)C(CO[C@@H]1O[C@H](CO)[C@H](O)[C@H](O)[C@H]1O)NC(=O)CCCCCOc1ccc2[nH]c(C(=O)N3CCN(c4ncccc4NC(C)C)CC3)cc2c1 | - | 0.1 µM | p24 | - | IIIB | H9 | 66%
CC(=O)NC1C=CN(c2cn(C(O)CP(=O)(O)O)nn2)C(=O)N1 | - | 100 µM | - | - | IIIB | CEM | 0%
CC1(C)CC[C@]2(C(=O)NCCCCCCCCCCC(=O)O)CC[C@]3(C)C(=CC[C@@H]4[C@@]5(C)C[C@@H](O)[C@H](O)C(C)(C)[C@@H]5CC[C@]43C)[C@@H]2C1 | - | 25 µM | p24 / ELISA | - | pNL4-3 | MT-2 | 78.5%
NCCSSCCN | - | 200 µM | p24 | - | IIIB | PBL | 100%
CC(=O)N1c2ccc3ccccc3c2C=CC1C#N | - | 50 µM | syncytia | - | IIIB | MOLT-3 | 0%
CC1(C)CC[C@]2(C(=O)NCCCCCC(=O)NCC(=O)O)CC[C@]3(C)C(=CC[C@@H]4[C@@]5(C)C[C@@H](O)[C@H](O)C(C)(C)[C@@H]5CC[C@]43C)[C@@H]2C1 | - | 10 µM | p24 / ELISA | - | pNL4-3 | MT-2 | -25.7%
N#CC1C=Cc2c(ccc3ccccc23)N1C(=O)c1ccccc1 | - | 50 µM | syncytia | - | IIIB | MOLT-3 | 0%
CC(C)c1cc(=O)oc2cc(-c3ccc(N)cc3)c3c(c12)OC(C)(C)C=C3 | - | 50 µM | RT activity / visual reading | - | 899A | MT-4 | 25%
COC(=O)c1cccc2c(C(=O)C(=O)N3CCN(C(=O)c4ccccc4)CC3C(F)(F)F)c[nH]c12 | - | 10 µM | luciferase | - | - | HeLa + HELA CD4+/CCR5 | >98%
c1cc(CNCCCNC2CCCCC2)cc(CNc2nc(N3CCNCC3)nc3nc[nH]c23)c1 | - | 10 µM | luciferase | - | IIIB | TZM-bl | 0%
COC(=O)N1c2ccc3ccccc3c2C=CC1C#N | - | 50 µM | syncytia | - | IIIB | MOLT-3 | 37.8%

4 of the rows above, restated:

| structure | changes | dose | method | setting | strain | cells | value |
|---|---|---|---|---|---|---|---|
| CCCCCCCCCCCCC/C=C/[C@@H](O)[C@H](CO)NC(=O)CCCOc1ccc2[nH]c(C(=O)N3CCN(c4ncccc4NC(C)C)CC3)cc2c1 | - | 0.1 µM | p24 | - | IIIB | H9 | 76% |
| CC(=O)N[C@@H](Cc1c[nH]c2ccccc12)C(=O)N[C@H](C(=O)N[C@@H](Cc1ccccc1)[C@H](O)[C@@H](O)[C@@H]1CCCN1C(=O)[C@@H](NC(=O)[C@H](Cc1c[nH]c2ccccc12)NC(C)=O)C(C)C)C(C)C | - | 0.005 µM | MTT | - | IIIB | MT-2 | <10% |
| COC(=O)CNC(=O)[C@]12CCC(C)(C)C[C@H]1C1=CC[C@@H]3[C@@]4(C)C[C@@H](O)[C@H](O)C(C)(C)[C@@H]4CC[C@@]3(C)[C@]1(C)CC2 | - | 25 µM | p24 / ELISA | - | pNL4-3 | MT-2 | 43.7% |
| CC1(C)CC[C@]2(C(=O)NCCCCCC(=O)NCC(=O)O)CC[C@]3(C)C(=CC[C@@H]4[C@@]5(C)C[C@@H](O)[C@H](O)C(C)(C)[C@@H]5CC[C@]43C)[C@@H]2C1 | - | 10 µM | p24 / ELISA | - | pNL4-3 | MT-2 | -25.7% |

An empty or dashed field is not shown. Percent inhibition refers to the dose given; in toxicity tests it is the harm to the cells.